Compound potency records, mixed from different reports. Data source: NIAID ChemDB in PubChem.

All rows: host cell toxicity; cells: MT-4; read-out: CC50

Rows are shuffled and stem from different studies. CCn: concentration that lowers growth or viability of the cells by n%. Blank or dashed fields: not listed here.

structure,method,value
COC(=O)CNC(=O)[C@H](CO)NC(=O)COc1ccc2ccccc2c1,MTT,>100 µg/mL
O=S(=O)(O)OCC1OC(O)C(OS(=O)(=O)O)C(OC2OC(COS(=O)(=O)O)C(OS(=O)(=O)O)C(OC3OC(COS(=O)(=O)O)C(OS(=O)(=O)O)C(OC4OC(COS(=O)(=O)O)C(OS(=O)(=O)O)C(OC5OC(COS(=O)(=O)O)C(OS(=O)(=O)O)C(OS(=O)(=O)O)C5OS(=O)(=O)O)C4OS(=O)(=O)O)C3OS(=O)(=O)O)C2OS(=O)(=O)O)C1OS(=O)(=O)O,-,>1000 µg/mL
COC(=O)[C@@H](NP(=O)(OC[C@H]1C=C[C@@H](n2cnc3c(N)ncnc32)C1)Oc1ccccc1)C(C)C,trypan blue,152 µM
O=C(NCCCN1CCCN(CCCNC(=O)OCc2ccccc2)CCCN(CCCNC(=O)OCc2ccccc2)CCN(CCCNC(=O)OCc2ccccc2)CCC1)OCc1ccccc1,-,50 µM
CC(C)c1c(COC(N)=O)cn(Cc2ccncc2)c1Sc1cc(Cl)cc(Cl)c1,-,>200 µM
[N-]=[N+]=N[C@H]1C[C@H](n2cnc3c(Oc4ccccc4)nc(N)nc32)O[C@@H]1CO,-,>200 µM
Cc1cc(-c2ccc(C#N)o2)cc(C)c1Nc1ccnc(Nc2ccc(C#N)cc2)n1,MTT,10 µM
CC(=O)SCCOP(=O)(OCCSC(C)=O)OC[C@H]1O[C@@H](n2cc(C)c(=O)[nH]c2=O)C[C@@H]1N=[N+]=[N-],-,76 µM
Cc1cn([C@H]2C[C@H](N=[N+]=[N-])[C@@H](CO)O2)c(=O)[nH]c1=O,-,27 µM
O=c1[nH]cnc2c1ncn2[C@H]1CC[C@@H](CO)O1,MTT,>212 µM
Cc1ccnc2c1NC(=O)c1cccnc1N2C1CC1,MTT,>15.02 µM
Cc1cn([C@H]2C[C@H](N=[N+]=[N-])[C@@H](CO)O2)c(=O)[nH]c1=O,MTT,0.29 µg/mL
CC(C)Nc1cccnc1N1CCN(C(=O)c2c[nH]c(-c3cccc(N)c3)c2)CC1,-,21 µM
COC(=O)C1C(=O)N(O)C(=O)c2ccccc21,MTT,60.85 µM
CCN(CC)c1nc(N)nc2c1ncn2[C@H]1C[C@H](N=[N+]=[N-])[C@@H](CO)O1,-,>200 µM
C=C(C)C12C[C@@H](COCc3ccccc3)[C@@]3(OO1)[C@@H]1[C@H]2OCCCCCCC[C@H](C)[C@@H]2[C@@H]3C3(O[C@]2(C)OC3=O)[C@H](O)[C@@]2(CO)O[C@@H]12,ATP / luminescence,3.4 µM
O=C(NCCCCN1CCCN(CCCCNC(=O)OCc2ccccc2)CCN(CCCCNC(=O)OCc2ccccc2)CCCN(CCCCNC(=O)OCc2ccccc2)CC1)OCc1ccccc1,-,10 µM
NCCCNc1ccc2[nH]ccc2c1,MTT,229 µM
COC(=O)[C@@H]1CCCN1P(=O)(OC[C@H]1C=C[C@@H](n2cnc3c(N)ncnc32)C1)Oc1ccccc1,trypan blue,106 µM
NC(=NCC(=O)NCCNc1ccc2[nH]ccc2c1)N[N+](=O)[O-],MTT,>391 µM
CC1(C)[C@@H](O[C@H]2O[C@H](C(=O)O)[C@@H](O)[C@H](O)[C@H]2O[C@@H]2O[C@H](C(=O)O)[C@@H](O)[C@H](O)[C@H]2O)CC[C@]2(C)[C@H]3C(=O)C=C4[C@@H]5C[C@@](C)(C(=O)O)CC[C@]5(C)CC[C@@]4(C)[C@]3(C)CC[C@@H]12,-,>1193 µM
C=C(C)C12C[C@@H](COCc3ccccc3)[C@@]3(OO1)[C@@H]1[C@H]2O[C@H](O)CCCCCC[C@@H](C)[C@H]2[C@H](C)[C@H](OCc4ccccc4)[C@@](O)([C@H](O)[C@@]4(CO)O[C@@H]14)[C@@H]23,ATP / luminescence,2.8 µM
CC(C)Nc1cccnc1N1CCN(C(=O)c2ccc(-c3ccc(NS(C)(=O)=O)cc3)[nH]2)CC1,-,29 µM
Cc1ccc(NC(=O)CSc2nncnc2-c2cccc3ccccc23)c([N+](=O)[O-])c1,MTT,147 µM
CCCCCCCCCCCCCCCCCCOC1OC(COS(=O)(=O)O)C(OC2OC(COS(=O)(=O)O)C(OC3OC(COS(=O)(=O)O)C(OC4OC(COS(=O)(=O)O)C(OC5OC(COS(=O)(=O)O)C(OC6OC(COS(=O)(=O)O)C(OS(=O)(=O)O)C(OS(=O)(=O)O)C6O)C(OS(=O)(=O)O)C5O)C(O)C4OS(=O)(=O)O)C(O)C3OS(=O)(=O)O)C(OS(=O)(=O)O)C2O)C(OS(=O)(=O)O)C1O,-,550 µg/mL
Nc1ccn([C@H]2CC[C@@H](CO)O2)c(=O)n1,-,87 µM
NCCCCCN1CCCN(CCCCCN)CCN(CCCCCN)CCCN(CCCCCN)CC1,-,10 µM
CN(C)c1nc(N)nc2c1ncn2[C@H]1C[C@H](N=[N+]=[N-])[C@@H](CO)O1,-,>200 µM
COC(=O)CNC(=O)CNC(=O)COc1ccc2ccccc2c1,MTT,>100 µg/mL
COc1cc(Oc2c(C)cc(C#N)cc2C)cc(Nc2ccc(C#N)cc2)n1,MTT,>147 µM
NC(N)=NCCCNc1ccc2[nH]ccc2c1.O=S(O)O,MTT,38.03 µM
CCCCCCCCCCCCOC1OC(COS(=O)(=O)O)C(OC2OC(COS(=O)(=O)O)C(OC3OC(COS(=O)(=O)O)C(OC4OC(COS(=O)(=O)O)C(OC5OC(COS(=O)(=O)O)C(OC6OC(COS(=O)(=O)O)C(OS(=O)(=O)O)C(OS(=O)(=O)O)C6O)C(OS(=O)(=O)O)C5OS(=O)(=O)O)C(O)C4OS(=O)(=O)O)C(OS(=O)(=O)O)C3O)C(OS(=O)(=O)O)C2O)C(O)C1OS(=O)(=O)O,-,>1000 µg/mL
C=C(C)C12C[C@@H](COCc3ccccc3)[C@@]3(OO1)[C@@H]1[C@H]2OCCCCCCC[C@@H](C)[C@H]2[C@H](C)[C@H](OCc4ccccc4)[C@@](O)([C@H](O)[C@@]4(CO)O[C@@H]14)[C@@H]23,ATP / luminescence,14.5 µM
N#Cc1cc(Cl)cc(Oc2cc(OCc3[nH]nc4cccnc34)ccc2Cl)c1,-,>8.3 µM
CCCCCCCCCCCCCCCC(=O)OCC(COC(=O)CCCCCCCCCCCCCCC)OC(=O)CCC(=O)O[C@H](CN1C[C@H]2CCCC[C@H]2C[C@H]1C(=O)NC(C)(C)C)[C@H](Cc1ccccc1)NC(=O)[C@H](CC(N)=O)NC(=O)c1ccc2ccccc2n1,MTT,>100 µM
O=C(CSc1nncnc1-c1cccc2ccccc12)N1CCc2ccccc2C1,MTT,13 µM
CCOC(=O)c1cn(Cc2ccncc2)c(Sc2cc(Cl)cc(Cl)c2)c1C(C)C,-,41 µM
Nc1ncnc2c1ncn2[C@H]1CC[C@@H](CO)O1,-,>100 µM
CC(C)c1c(CO)cn(Cc2ccncc2)c1S(=O)(=O)c1ccccc1,-,≥200 µM
Cc1cc(C)cc(C(=O)c2cccnc2Oc2ccc(C=O)cc2)c1,MTT,33.65 µM
CC(C)[C@H](NC(=O)N(C)Cc1ccccn1)C(=O)N[C@@H](Cc1ccccc1)[C@H](O)[C@@H](O)[C@H](Cc1ccccc1)NC(=O)[C@@H](NC(=O)N(C)Cc1ccccn1)C(C)C,-,>100 µM
CC(C)Nc1cccnc1N1CCN(C(=O)c2c[nH]c(-c3cccc(NS(C)(=O)=O)c3)c2)CC1,-,35 µM
CC(=O)SCCOP(=O)(OCCSC(C)=O)OC[C@@H]1CC[C@H](n2cnc3c(=O)[nH]cnc32)O1,-,>100 µM
COC(=O)C[C@H](NP(=O)(OC[C@H]1C=C[C@@H](n2cnc3c(N)ncnc32)C1)Oc1ccccc1)C(=O)OC,trypan blue,53.5 µM
O=C(NCCCCCCN1CCCN(CCCCCCNC(=O)OCc2ccccc2)CCN(CCCCCCNC(=O)OCc2ccccc2)CCCN(CCCCCCNC(=O)OCc2ccccc2)CC1)OCc1ccccc1,-,1 µM
CCCNc1nc(N)nc2c1ncn2[C@H]1C[C@H](N=[N+]=[N-])[C@@H](CO)O1,-,>80 µM
O=c1[nH]cnc2c1ncn2[C@H]1CC[C@@H](CO)O1,MTT,>100 µg/mL
CCCCCCCC/C=C\CCCCCCCC(=O)OCC(COC(=O)CCCCCCC/C=C\CCCCCCCC)OC(=O)CCC(=O)O[C@H](CN1C[C@H]2CCCC[C@H]2C[C@H]1C(=O)NC(C)(C)C)[C@H](Cc1ccccc1)NC(=O)[C@H](CC(N)=O)NC(=O)c1ccc2ccccc2n1,MTT,>100 µM
COc1ncccc1C(=O)c1cccc(C#N)c1,MTT,255 µM
[N-]=[N+]=N[C@H]1C[C@H](n2cnc3c(OCc4ccccc4)nc(N)nc32)O[C@@H]1CO,-,>200 µM
NC(N)=NCCCCNc1ccc2[nH]ccc2c1.O=S(O)O,MTT,213 µM
COC(=O)[C@H](CC(C)C)NP(=O)(OC[C@H]1C=C[C@@H](n2cnc3c(N)ncnc32)C1)Oc1ccccc1,trypan blue,23.2 µM
Cc1cn([C@H]2C[C@H](N=[N+]=[N-])[C@@H](COC(=O)CCC(=O)OC[C@H]3O[C@@H]4O[C@H]5[C@H](O)[C@@H](O)[C@@H](O[C@H]6[C@H](O)[C@@H](O)[C@@H](O[C@H]7[C@H](O)[C@@H](O)[C@@H](O[C@H]8[C@H](O)[C@@H](O)[C@@H](O[C@H]9[C@H](O)[C@@H](O)[C@@H](O[C@H]3[C@H](O)[C@H]4O)O[C@@H]9CO)O[C@@H]8CO)O[C@@H]7CO)O[C@@H]6CO)O[C@@H]5CO)O2)c(=O)[nH]c1=O,MTT,8.38 µg/mL
Cc1ccnc2c1NC(=O)c1cccnc1N2C1CC1,MTT,20 µM
CCOC(=O)c1c[nH]c(Sc2cc(Cl)cc(Cl)c2)c1C(C)C,-,>200 µM
O=C(CSc1nncnc1-c1cccc2ccccc12)Nc1ccccc1,MTT,154 µM
NCCCCNc1ccc2[nH]ccc2c1,MTT,19.23 µM
COC(=O)[C@H](C)NP(=O)(OC[C@@H]1CC[C@H](n2cnc3c(N)ncnc32)C1)Oc1ccccc1,MTS,6.5 µM
CC1(C)C2CC[C@@]3(C)C4CC[C@@]5(C)CC[C@](C)(C(=O)O)C[C@H]5C4=CC(=O)C3[C@@]2(C)CC[C@@H]1O[C@@H]1O[C@H](C(=O)O)[C@@H](O[C@@H]2O[C@H](C(=O)O)[C@@H](O)[C@H](O)[C@H]2O)[C@H](O)[C@H]1O,-,1950 µg/mL
CC(C)Nc1cccnc1N1CCN(C(=O)c2ccc(-c3cccc(NS(C)(=O)=O)c3)[nH]2)CC1,-,21 µM
Cc1ccc(NC(=O)CSc2nncnc2-c2cccc3ccccc23)c(Br)c1,MTT,166 µM
Cc1cc(/C(Cl)=C\C#N)cc(C)c1Nc1ccnc(Nc2ccc(C#N)cc2)n1,MTT,30 µM
Cc1cn([C@H]2C[C@H](N=[N+]=[N-])[C@@H](CO)O2)c(=O)[nH]c1=O,-,>6.43 µM
COC(=O)[C@H](CO)NC(=O)[C@H](CO)NC(=O)COc1ccc2ccccc2c1,MTT,>100 µg/mL
[N-]=[N+]=N[C@H]1C[C@H](n2cnc3c(NCc4ccccc4)nc(N)nc32)O[C@@H]1CO,-,>80 µM
CCCCCCCC/C=C\CCCCCCCC(=O)O[C@@H]1Cc2ccccc2[C@@H]1NC(=O)[C@H](Cc1ccccc1)C[C@H](O)CN1CCN(Cc2cccnc2)C[C@H]1C(=O)NC(C)(C)C,MTT,>100 µM
Cc1cc(C)cc(C(=O)c2cccnc2Nc2ccc(C#N)cc2)c1,MTT,128 µM

Again, the opening 7 rows:

{"structure": "COC(=O)CNC(=O)[C@H](CO)NC(=O)COc1ccc2ccccc2c1", "method": "MTT", "value": ">100 µg/mL"}
{"structure": "O=S(=O)(O)OCC1OC(O)C(OS(=O)(=O)O)C(OC2OC(COS(=O)(=O)O)C(OS(=O)(=O)O)C(OC3OC(COS(=O)(=O)O)C(OS(=O)(=O)O)C(OC4OC(COS(=O)(=O)O)C(OS(=O)(=O)O)C(OC5OC(COS(=O)(=O)O)C(OS(=O)(=O)O)C(OS(=O)(=O)O)C5OS(=O)(=O)O)C4OS(=O)(=O)O)C3OS(=O)(=O)O)C2OS(=O)(=O)O)C1OS(=O)(=O)O", "value": ">1000 µg/mL"}
{"structure": "COC(=O)[C@@H](NP(=O)(OC[C@H]1C=C[C@@H](n2cnc3c(N)ncnc32)C1)Oc1ccccc1)C(C)C", "method": "trypan blue", "value": "152 µM"}
{"structure": "O=C(NCCCN1CCCN(CCCNC(=O)OCc2ccccc2)CCCN(CCCNC(=O)OCc2ccccc2)CCN(CCCNC(=O)OCc2ccccc2)CCC1)OCc1ccccc1", "value": "50 µM"}
{"structure": "CC(C)c1c(COC(N)=O)cn(Cc2ccncc2)c1Sc1cc(Cl)cc(Cl)c1", "value": ">200 µM"}
{"structure": "[N-]=[N+]=N[C@H]1C[C@H](n2cnc3c(Oc4ccccc4)nc(N)nc32)O[C@@H]1CO", "value": ">200 µM"}
{"structure": "Cc1cc(-c2ccc(C#N)o2)cc(C)c1Nc1ccnc(Nc2ccc(C#N)cc2)n1", "method": "MTT", "value": "10 µM"}